PubChem BioAssay AID1259414, Drosophila RNAi Screening Center, 2018
The screen tested about 24,000 reagents; this is a random part of those with a known target gene and a result. In the full data, about 1,210 (5%) were called active. 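Inactive calls also include excluded dsRNAs with several or no targets, genes unexpressed in JW18, and well A1, regardless of score.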

- Screen: 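Fly genes that alter Wolbachia amount inside host cells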 (primary screen)
- System: Drosophila JW18 cells infected with Wolbachia
- Reagents: long dsRNA against Drosophila genes, 0.25 µg dsRNA per well of a 384-well plate
- Duration: 5 days
- Challenge: cells persistently infected with Wolbachia before knock-down; no added drug
- Measurement: 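Automated imaging of bacterial rRNA staining divided by host cell count, reported as plate-normalised robust z-score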
- Scale: Wolbachia per cell robust z: higher = more Wolbachia per host cell than the plate typical
- Active means: 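Hit when robust z is 1.5 or more, or -1.5 or less, in at least two of three replicates; excludes dsRNAs with several or no targets, genes not expressed in JW18 and well A1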

For Ugt305A1 (GeneID 59217) [DRSC08541], the entry reads Wolbachia per cell robust z, rep 1 = -0.892; Wolbachia per cell robust z, rep 2 = -1.85; Wolbachia per cell robust z, rep 3 = -0.482; inactive.
Depletion of Ugt305A1 (GeneID 59217) [DRSC26426] came out at: Wolbachia per cell robust z, rep 1 = 0.926; Wolbachia per cell robust z, rep 2 = 0.98; Wolbachia per cell robust z, rep 3 = 0.844; inactive.
Jarid2 (GeneID 39103) [DRSC10372] gave Wolbachia per cell robust z, rep 1 = 0.263; Wolbachia per cell robust z, rep 2 = -5.91; Wolbachia per cell robust z, rep 3 = -0.103; inactive.
After knock-down of CG13295 (GeneID 38692) [DRSC09969], the screen gave Wolbachia per cell robust z, rep 1 = -0.853; Wolbachia per cell robust z, rep 2 = -0.455; Wolbachia per cell robust z, rep 3 = -0.027; inactive.
For to (GeneID 43036) [DRSC17086] the deposit lists Wolbachia per cell robust z, rep 1 = 0.602; Wolbachia per cell robust z, rep 2 = -0.452; Wolbachia per cell robust z, rep 3 = 0.385; inactive.
Silencing of to (GeneID 43036) [DRSC29075] came out at: Wolbachia per cell robust z, rep 1 = 0.544; Wolbachia per cell robust z, rep 2 = -2.05; Wolbachia per cell robust z, rep 3 = -2.83; inactive.
Knock-down of CG17266 (GeneID 35571) [DRSC04979] resulted in: Wolbachia per cell robust z, rep 1 = 0.719; Wolbachia per cell robust z, rep 2 = 0.911; Wolbachia per cell robust z, rep 3 = 0.646; inactive.
Knock-down of CG17266 (GeneID 35571) [DRSC22368] came out at: Wolbachia per cell robust z, rep 1 = 0.833; Wolbachia per cell robust z, rep 2 = -1.37; Wolbachia per cell robust z, rep 3 = -0.652; inactive.
CG17266 (GeneID 35571) [DRSC24207] gave Wolbachia per cell robust z, rep 1 = -0.164; Wolbachia per cell robust z, rep 2 = -0.97; Wolbachia per cell robust z, rep 3 = 0.323; inactive.
With knock-down of CG3527 (GeneID 31387) [DRSC18307], the screen gave Wolbachia per cell robust z, rep 1 = 0.472; Wolbachia per cell robust z, rep 2 = -0.936; Wolbachia per cell robust z, rep 3 = 0.327; inactive.
CG3527 (GeneID 31387) [DRSC28450] scored Wolbachia per cell robust z, rep 1 = -0.193; Wolbachia per cell robust z, rep 2 = 1.3; Wolbachia per cell robust z, rep 3 = 0.889; inactive.
Knock-down of Lipt2 (GeneID 40565) [DRSC12338] gave: Wolbachia per cell robust z, rep 1 = -1.05; Wolbachia per cell robust z, rep 2 = -0.0293; Wolbachia per cell robust z, rep 3 = 0.602; inactive.
For Lipt2 (GeneID 40565) [DRSC22610] the deposit lists Wolbachia per cell robust z, rep 1 = 0.804; Wolbachia per cell robust z, rep 2 = 0.508; Wolbachia per cell robust z, rep 3 = 0.411; inactive.
For CG14367 (GeneID 41676) [DRSC14829], the values are Wolbachia per cell robust z, rep 1 = -1.51; Wolbachia per cell robust z, rep 2 = -0.808; Wolbachia per cell robust z, rep 3 = -0.0825; inactive.
CG17834 (GeneID 34191) [DRSC02637] scored Wolbachia per cell robust z, rep 1 = -1.25; Wolbachia per cell robust z, rep 2 = -1.4; Wolbachia per cell robust z, rep 3 = -1.93; inactive.
Knock-down of CG17834 (GeneID 34191) [DRSC26694] came out at: Wolbachia per cell robust z, rep 1 = -2.39; Wolbachia per cell robust z, rep 2 = -1.78; Wolbachia per cell robust z, rep 3 = -0.124; active.
For CG30440 (GeneID 35496) [DRSC04775], the values are Wolbachia per cell robust z, rep 1 = -1.04; Wolbachia per cell robust z, rep 2 = -8.72; Wolbachia per cell robust z, rep 3 = -1.48; inactive.
For CG30440 (GeneID 35496) [DRSC04845], the entry reads Wolbachia per cell robust z, rep 1 = 1.17; Wolbachia per cell robust z, rep 2 = 0.803; Wolbachia per cell robust z, rep 3 = 0.491; inactive.
After knock-down of CG30440 (GeneID 35496) [DRSC04855], the record shows Wolbachia per cell robust z, rep 1 = -2.05; Wolbachia per cell robust z, rep 2 = -0.641; Wolbachia per cell robust z, rep 3 = -0.618; inactive.
Silencing of Trs20 (GeneID 39769) [DRSC10489] gave: Wolbachia per cell robust z, rep 1 = -0.0255; Wolbachia per cell robust z, rep 2 = -5.73; Wolbachia per cell robust z, rep 3 = -0.537; inactive.
Silencing of Pka-C2 (GeneID 43644) [DRSC16790] came out at: Wolbachia per cell robust z, rep 1 = 1.69; Wolbachia per cell robust z, rep 2 = 0.176; Wolbachia per cell robust z, rep 3 = 1.93; inactive.
With knock-down of Pka-C2 (GeneID 43644) [DRSC23310], the screen gave Wolbachia per cell robust z, rep 1 = -5.95; Wolbachia per cell robust z, rep 2 = 0.994; Wolbachia per cell robust z, rep 3 = 0.381; inactive.
Knock-down of Pka-C2 (GeneID 43644) [DRSC29076] resulted in: Wolbachia per cell robust z, rep 1 = -0.579; Wolbachia per cell robust z, rep 2 = -2.02; Wolbachia per cell robust z, rep 3 = -0.248; inactive.
clu (GeneID 36793) [DRSC07181] gave Wolbachia per cell robust z, rep 1 = 0.173; Wolbachia per cell robust z, rep 2 = -0.128; Wolbachia per cell robust z, rep 3 = -0.0536; inactive.
After knock-down of clu (GeneID 36793) [DRSC29278] the results were Wolbachia per cell robust z, rep 1 = 0.559; Wolbachia per cell robust z, rep 2 = 0.928; Wolbachia per cell robust z, rep 3 = 0.741; inactive.
